A mixed list of measured activities; the numbers were collected in NIAID ChemDB.

All rows: tests in culture

Inhibition is in % at the dose shown (toxicity tests: loss of growth or viability). A number after MIC or MFC names an inhibition level or a share of isolates. Blank or dashed fields: not listed here. ECn: concentration that inhibits the pathogen or its effect by n%. Rows are shuffled and stem from different studies.

| SMILES | species | strain or isolate | mutations | cell line | read by | read-out | tested at | result |
|---|---|---|---|---|---|---|---|---|
| CN(C)c1cc(NC(=O)CNC(C)(C)C)c(O)c2c1C[C@H]1C[C@H]3[C@H](N(C)C)C(=O)C(C(N)=O)=C(O)[C@@]3(O)C(=O)C1=C2O | Mycobacterium massiliense | V128 | - | - | broth dilution | MIC | - | 2 µg/mL |
| OC(Cn1cncn1)(Cn1cncn1)c1ccc(F)cc1F | Candida albicans | TW 00313 | - | - | broth dilution | MIC | - | 128 µg/mL |
| C#CC[C@@H](C(=O)N[C@H](/C=C/C(=O)OCC)C[C@@H]1CCNC1=O)n1cccc(NC(=O)c2cc(C)on2)c1=O | Rhinovirus | Serotype 84 | - | H1-HELA | cytopathic effect / XTT | EC50 | - | 0.028 µM |
| COc1cc(Cc2cnc(N)nc2N)cc(OC)c1OC | Mycobacterium ulcerans | Isolate 5143 | - | - | - | MBC | - | >32 µg/mL |
| COc1ccc(C)c(NCc2cnc3nc(N)nc(N)c3c2C)c1 | Encephalitozoon intestinalis | - | - | RK-13 | - | inhibition | 1 µg/mL | 75.7% |
| CO[C@H]1/C=C/O[C@@]2(C)Oc3c(C)c(O)c4c(=O)c(c5oc6cc(N7CCN(CC(C)C)CC7)cc(=O)c6nc5c4c3=C2O)NC(=O)/C(C)=C\C=C\[C@H](C)[C@H](O)[C@@H](C)[C@@H](O)[C@@H](C)[C@H](OC(C)=O)[C@@H]1C | Staphylococcus aureus | 209P | - | - | - | MIC | - | 0.0039 µg/mL |
| Cc1ccnc2c1NC(=O)c1cccnc1N2C1CC1 | HIV-1 | - | RT-K70R K103N | MT-4 | - | EC95 | - | 3 µM |
| CC(=O)Oc1ccccc1C(=O)Nc1ncc([N+](=O)[O-])s1 | Vittaforma corneae | - | - | RK-13 | - | inhibition | 0.001 µg/mL | 22.3% |
| O=c1cnn([C@@H]2O[C@H](CO)[C@@H](O)[C@H]2O)c(=O)[nH]1 | West Nile virus | E101 | - | VERO | virus yield | EC90 | - | 3.2 µg/mL |
| CCCN1CCN(c2cc(=O)c3nc4c(oc3c2)c2c(=O)c3c(O)c(C)c5c(c34)=C(O)[C@@](C)(O/C=C/[C@H](OC)[C@@H](C)[C@@H](OC(C)=O)[C@H](C)[C@H](O)[C@H](C)[C@@H](O)[C@@H](C)/C=C/C=C(/C)C(=O)N2)O5)CC1 | Staphylococcus aureus | 16 strains (methicillin- quinolone-resistant) | - | - | - | MIC90 | - | 0.016 µg/mL |
| CN[C@@H]1[C@H](O[C@H]2[C@H](O[C@H]3[C@H](O)[C@@H](O)[C@H](N=C(N)N)[C@@H](O)[C@@H]3N=C(N)N)O[C@@H](C)[C@]2(O)C=O)O[C@@H](CO)[C@H](O)[C@H]1O | Staphylococcus epidermidis | - | - | - | - | MIC | - | 25 µg/mL |
| Nc1nccc2c1ncn2[C@@H]1C[C@H](CO)[C@@H](O)[C@H]1O | Vesicular stomatitis virus | - | - | VERO | cytopathic effect | EC50 | - | 7 µg/mL |
| CC[C@H]1OC(=O)[C@H](C)[C@@H](O[C@H]2C[C@@](C)(OC)[C@@H](O)[C@H](C)O2)[C@H](C)[C@@H](O[C@@H]2O[C@H](C)C[C@H](N(C)C)[C@H]2O)[C@](C)(OC)C[C@@H](C)C(=O)[C@H](C)[C@@H](O)[C@]1(C)O | Mycobacterium abscessus | V133 | - | - | broth dilution | MIC | - | 0.125 µg/mL |
| Cc1c(CSc2cccc3ccccc23)cnc2nc(N)nc(N)c12 | Encephalitozoon intestinalis | - | - | RK-13 | - | inhibition | 0.01 µg/mL | 12.7% |
| NC(=O)c1nc(F)c[nH]c1=O | Influenza A virus | H1N1 SUITA/1/89 | - | MDCK | plaque count | EC50 | - | 0.029 µg/mL |
| C[C@H](Cc1ccc(O)c(O)c1)[C@@H](C)Cc1ccc(O)c(O)c1 | Candida lusitaniae | CCC 131-2000 | - | - | broth dilution | MIC100 | - | 500 µg/mL |
| CO[C@H]1[C@@H](OC(=O)/C=C/C=C/C=C/C=C/C(=O)O)CC[C@@]2(CO2)[C@@H]1[C@@]1(C)O[C@@H]1CC=C(C)C | Vittaforma corneae | - | - | RK-13 | - | inhibition | 0.001 µg/mL | 56.7% |
| CCOc1cc(Cc2cnc(N)nc2N)cc(OCC)c1-n1cccc1 | Mycobacterium ulcerans | Isolate 8756 | - | - | - | MIC | - | 1 µg/mL |
| CO[C@@H]1[C@H](OC(=O)NC(=O)CCl)CC[C@]2(CO2)[C@H]1[C@@]1(C)O[C@@H]1CC=C(C)C | Vittaforma corneae | - | - | RK-13 | - | inhibition | 0.001 µg/mL | 75.1% |
| CCC(C)n1ncn(-c2ccc(N3CCN(c4ccc(OC[C@H]5CO[C@](Cn6cncn6)(c6ccc(Cl)cc6Cl)O5)cc4)CC3)cc2)c1=O | Candida albicans | AD | - | - | - | MIC | - | 0.13 µg/mL |
| Nc1nc2c(ncn2COCOCP(=O)(O)O)c(=O)[nH]1 | Parainfluenza virus | 14798 (TYPE 3) | - | - | cytopathic effect | EC50 | - | 100 µg/mL |
| O=C(Nc1ncc([N+](=O)[O-])s1)c1ccccc1O | Vittaforma corneae | - | - | RK-13 | - | inhibition | 0.1 µg/mL | 63.6% |
| Nc1ccnc2c1ncn2[C@H]1C=C[C@@H](OCP(=O)(O)O)O1 | Adenovirus | WT 300 (TYPE 5) | - | - | virus yield | EC90 | - | 16 µg/mL |
| CCO/N=C/c1ccc(OCCC2CCN(c3ccc(C)nn3)CC2)cc1 | Rhinovirus | Baylor 3 (LDL receptor group 47) | - | KB | neutral red | EC50 | - | 0.117 µM |
| Nc1nc2c(ncn2CCOCP(=O)(O)O)c(=O)[nH]1 | Measles virus | Edmonston | - | - | neutral red | EC50 | - | >32 µg/mL |
| CCCSc1ccc2nc(NC(=O)OC)[nH]c2c1 | Vittaforma corneae | - | - | RK-13 | - | inhibition | 10 µg/mL | 93.8% |

A second listing of 2 rows from above:

{"SMILES": "CCO/N=C/c1ccc(OCCC2CCN(c3ccc(C)nn3)CC2)cc1", "species": "Rhinovirus", "strain or isolate": "Baylor 3 (LDL receptor group 47)", "cell line": "KB", "read by": "neutral red", "read-out": "EC50", "result": "0.117 µM"}
{"SMILES": "CN[C@@H]1[C@H](O[C@H]2[C@H](O[C@H]3[C@H](O)[C@@H](O)[C@H](N=C(N)N)[C@@H](O)[C@@H]3N=C(N)N)O[C@@H](C)[C@]2(O)C=O)O[C@@H](CO)[C@H](O)[C@H]1O", "species": "Staphylococcus epidermidis", "read-out": "MIC", "result": "25 µg/mL"}